Measured values from several laboratories, pooled; numbers as filed in NIAID ChemDB.

Shared fields: whole-cell or culture tests; agent: HIV-1; cells: CEM + CEM-SS; endpoint: fold resistance

Fold resistance: result on the changed form divided by that on wild type. Conditions beyond the fields shown may differ between rows.

compound | strain | mutations | method | value
CCCc1cc(=O)oc2c3c(c4c(c12)OC(C)(C)C=C4)O[C@H](C)[C@@H](C)[C@@H]3O | IIIB(N119(III)) | RT-Y181C | cytopathic effect / XTT | 0.5
CCCc1cc(=O)oc2c3c(c4c(c12)OC(C)(C)C=C4)O[C@@H](C)[C@H](C)[C@@H]3O | UC040-R (RT-Y181C) | RT-Y181C | cytopathic effect / XTT | <0.16
Cc1cn([C@H]2C[C@H](N=[N+]=[N-])[C@@H](CO)O2)c(=O)[nH]c1=O | IIIB | RT-K103N Y181C | cytopathic effect / XTT | 0.2
Cc1occc1C(=S)Nc1ccc(Cl)c(/C=N/OC(C)(C)C)c1 | UC10-resistant (RT Y181C K101E) | RT-Y181C K101E | cytopathic effect / XTT | >100
Cc1cn([C@H]2C[C@H](N=[N+]=[N-])[C@@H](CO)O2)c(=O)[nH]c1=O | Costatolide-resistant (RT L100I T139I) | RT-L100I T139I | XTT | 12
Cc1ccnc2c1NC(=O)c1cccnc1N2C1CC1 | NL4-3 (RT Y181C) | RT-Y181C | cytopathic effect / XTT | 65
CCc1c(C(=O)c2cc(C)cc(C)c2)n(CC2CC=CC2)c(=O)[nH]c1=O | NL4-3 | RT-V179D | cytopathic effect / XTT | 0.5
CC(C)=CCN1Cc2cccc3[nH]c(=S)n(c23)C[C@@H]1C | IIIB HEPT-resistant (IV) | RT-P236L | cytopathic effect / XTT | 1
C/C=C/CSc1cc(NC(=S)c2ccsc2C)ccc1Cl | NL4-3 (RT L100I) | RT-L100I | cytopathic effect / XTT | >40
O=S1(c2ccccc2)=NC(=S)Nc2ccccc21 | IIIB HEPT-resistant (IV) | RT-P236L | cytopathic effect / XTT | 1
Fc1cccc(F)c1C1SCc2nc3ccccc3n21 | IIIB | RT-Y181C | cytopathic effect / XTT | >27
CC(=O)c1ccc(C)cc1NC(C(N)=O)c1c(Cl)cccc1Cl | Dihydrocostatolide-resistant (RT-L100I) | RT-L100I | XTT | 0.667
CCc1c(Sc2ccccn2)n(COCc2ccccc2)c(=O)[nH]c1=O | NL4-3 | RT-L100I | cytopathic effect / XTT | 1.5
O=[N+]([O-])c1ccccc1S(=O)(=O)c1ccccc1 | IIIB(CALO-R(II)) | RT-V90I T139I P225S | cytopathic effect / XTT | 2.3
Cc1ccnc2c1NC(=O)c1cccnc1N2C1CC1 | NL4-3(RT-4XAZT+L100I) | RT-D67N K70R L100I T215Y K219Q | XTT | 1.5

2 of the rows above, restated:

{"compound": "CC(=O)c1ccc(C)cc1NC(C(N)=O)c1c(Cl)cccc1Cl", "strain": "Dihydrocostatolide-resistant (RT-L100I)", "mutations": "RT-L100I", "method": "XTT", "value": "0.667"}
{"compound": "CC(C)=CCN1Cc2cccc3[nH]c(=S)n(c23)C[C@@H]1C", "strain": "IIIB HEPT-resistant (IV)", "mutations": "RT-P236L", "method": "cytopathic effect / XTT", "value": "1"}